Results reported in paper PMC5630374.

Experiments:
[1] = system: His-CalR (Vibrio parahaemolyticus RIMD2210633); test: EMSA; details: 10 mM Tris-HCl pH 7.5, 50 mM NaCl, 1 mM MgCl2, 0.5 mM EDTA, 0.5 mM DTT, room temperature; recombinant protein; residues 1-319; protein details: 6xHis (pET28a); probe letters rebuilt from the primers and the genome
[2] = system: His-CalR (Vibrio parahaemolyticus RIMD2210633); test: DNase I footprinting; details: 10 mM Tris-HCl pH 7.5, 50 mM NaCl, 1 mM MgCl2, 0.5 mM EDTA, 0.5 mM DTT, room temperature, recombinant protein, residues 1-319, protein details: 6xHis (pET28a), label: FAM or HEX, probe letters rebuilt from the primers and the genome

Sequence	binding result [1]	binding result [2]	also measured
ATTGTCCGTCAAATGCAGTTCAGGCAAGCCTATTTGATGAGCAAACTTCTGTAAAACCTCATCGATAGTTTGGCGTGCTGACATAGAAACAGTCCTTTTGAGAATTTTATCGGGAAACATATTCGATATCGTGGGGTGTGTTTATCAATTTTGGTTGTTAGTTATTATATTTTGGCCGGAAACCCAGAATTGACTCCTTGCTTCTAATCTTACAAATGAGTGCTGGTGCATATAAAGATTAACGGTTATTAAATTCTATTATGGTGGGATTTTGGTTTATATCGACAAGCGATGAAGAATTAGAATTGTGTTATCTTAAAAATTAAATACTATGTTAATTACGTGTTGTACGTGGAACGTTATTGCTGTCCATCTGTAGAATAAATATAAGCCGAAAATTTAAACGTACACATAAGAATTTGTGTAAAAATAAATCATAATAAGACGATAAAAATAATTTATGGGAGCCTAAATGAAAAGCAGTAAGTGGGCCGGTCTTATCGGTTTAATGTTATTGACTGGATGCGCTCAGTCCGTGGGGACTTCACAGCCATTTTCCGTTCAGAGCCAAGCGAATGTATATG (double strand) [exsB promoter, EMSA fragment]	binds	–	–
CAGATTGCTGAATATCGGTGATGTATGAGAAATCGTTCAATGTAAAAAATATGCGCAATGATTGATGCTGGGAGAATAGAAAGGATGAGGTGGTATTTATAGTGAATATTGGTCGGGAGTTTTTAGAAAACTGAAAACGCCCTAAAAAAACACGTCTGATTTTGACAGCCTGATAAAAACGCACTTCATATAATTCGCTTGTATTGTACGAAAGGAGTGCAAGTGAATGAGTATTATCAATAGTCAGATAGCAACCAACACCAAGTTTGATGCATCGGTCCGGAATGGATTGGAATCGTCTCGTGCGGACAGTGCCGTAAAAGGCAGTTATCGAGGTGAGACCGTGCGCGTGCACAACGCCACTCAATCGCTT (double strand) [vp1667 promoter, EMSA fragment]	binds	–	–
CAGGAAACAGCTATGACCAAGCCAATGAGCGTCAGGCGATCATCCTCAGCACGCACAGTGATTGCCGTGTCTTGGTCAATCAAAAGATGACAGCAATCGTCGCCATCAAAAAACAGTTGTTCTATTTGGCAACGGTGAGCAAAATCCGTCATCAAAGCGGTAATAAATCCATTAGCCATTTGAATGAATAATCCTATAGTGCTTGTTACGAATTCGGCAGACGAGTCATGAAAACAGAGTGACCCAGAGCCGTTTTGATGCTGTTATTTTTCATCATTCGGCGCGATTAATATGCTAAAGATGGTCGGATTTTTTTCGTTTTAAGACGTTTGAAAACAACAAAGCTCAGCAATGTGCTGAGCTTTGTGTTCGATTGATTTGGCGGTGATGCCCTACTCTGGTGACTGGCCGTCGTTTTAC (double strand) [vp1687 promoter, footprint fragment]	–	binds	–
GTAAAACGACGGCCAGTCCGTTGGTTATTGATAGGTGGGGTAAATGTGTTTCGATGTTTGTTCTTAGTCTTATCAATTTGCTAAATACATACTCAAAGAGTGTGGTTTTAGTTGTTTTATAGTTTTTTATGTTTTTTTCAATTTGTTGATTTTAAATGATTAAATACCTAAGTGGCTAAAATTTAGTGATTAAATATCAATCTAGTTGCTAAACCCCAATCGATTAGTTGATAGTACGCTTCGAGCCGGAAGTATCCGGACGATAAATATAATAAAAATTAGGTTTCTATTCGTAAAAATGATTCGAATCCAGCCGCCGTCTTTTGTGCGAGATGGGATTCTATTCGTTATGAATTCATTGAAACAATTTGACGATTACAAAAGAGGCGCACTCAATGTTAGAGAAGAAAGATGCGATGAGCGCAATTGCTAGCTACCGTATGGAAAGCACTTTGCGTGGTGTAGATTTGAACCTACTGACTGTATTTGATGCTGTGATGCAAGAGCAAAATATCACTCGTGCAGCACACAACTTAGGCATGTCTCAACCGGCAGTAAGTAATGCCGTGGGTCATAGCTGTTTCCTG (double strand) [calR promoter, CalR footprint fragment]	–	binds	–
GTAAAACGACGGCCAGTCAGATTGCTGAATATCGGTGATGTATGAGAAATCGTTCAATGTAAAAAATATGCGCAATGATTGATGCTGGGAGAATAGAAAGGATGAGGTGGTATTTATAGTGAATATTGGTCGGGAGTTTTTAGAAAACTGAAAACGCCCTAAAAAAACACGTCTGATTTTGACAGCCTGATAAAAACGCACTTCATATAATTCGCTTGTATTGTACGAAAGGAGTGCAAGTGAATGAGTATTATCAATAGTCAGATAGCAACCAACACCAAGTTTGATGCATCGGTCCGGAATGGATTGGAATCGTCTCGTGCGGACAGTGCCGTAAAAGGCAGTTATCGAGGTGAGACCGTGCGCGTGCACAACGCCACTCAATCGCTTGTCATAGCTGTTTCCTG (double strand) [vp1667 promoter, footprint fragment]	–	binds	–
CAGGAAACAGCTATGACCGAGCGAATTACTATTTGGATCAAAGGTAAACCTTTGAGCAAGTAGAAATTTGGTGCCGATGTTAGTCATTTAGTTCTTCTTAGATGGATGATGTTGTAATTATGGTGATTTATATCACAAAATTACGTTTGCGCATGGGAGATACGCGACGTTTTAGATGCTTTTAGGGGGGTAGGATAATTAAATTTTTCTAAAAAAACACCGTTTTTAGCAATATTGACCTTGAATTTACATTTGTCAGCCACATGTTAAATGACATCTTAGTGTGGTGATTTCATGGGGCTAAATCACAAAGTCGTCCCTGAAAACTGGCCGTCGTTTTAC (double strand) [toxR promoter, footprint fragment]	–	–	binding result ([2]; 5.52-11.04 pmol protein): binds
CGAGCGAATTACTATTTGGATCAAAGGTAAACCTTTGAGCAAGTAGAAATTTGGTGCCGATGTTAGTCATTTAGTTCTTCTTAGATGGATGATGTTGTAATTATGGTGATTTATATCACAAAATTACGTTTGCGCATGGGAGATACGCGACGTTTTAGATGCTTTTAGGGGGGTAGGATAATTAAATTTTTCTAAAAAAACACCGTTTTTAGCAATATTGACCTTGAATTTACATTTGTCAGCCACATGTTAAATGACATCTTAGTGTGGTGATTTCATGGGGCTAAATCACAAAGTCGTCCCTGAAAAAGCCTGTTAGTTTAGATGTTATGGAGCACACATGAGCGAAACCGTATCTCAAAATAAAGAAACTCGTGGTTTTCAATCAGAAGTAAAACAACTACTTCATTTAATGATCCATTCTCTTTATTCCAATAAAGAGATCTTTTTGCGCGAGCTGATTTCTAACGCATCAGATGCATCAGACAAATTGCGTTTTCAGGCACTTTCGAATCCAGATTTATATGAAGGTAACGCAGATCTTGGCGTTAAGCTGTCATTTGATGAAAGTGCAAATACCTTAACGAT (double strand) [toxR promoter, EMSA fragment]	binds	–	–
GCATTATTGACGCCAGTATCGATGGACAGATTCAGGCGTTAAAGCAAGCGATGGTGAAACAACTCAGTGAGCGGAAAATGACGTCACCAGAGTAGGGCATCACCGCCAAATCAATCGAACACAAAGCTCAGCACATTGCTGAGCTTTGTTGTTTTCAAACGTCTTAAAACGAAAAAAATCCGACCATCTTTAGCATATTAATCGCGCCGAATGATGAAAAATAACAGCATCAAAACGGCTCTGGGTCACTCTGTTTTCATGACTCGTCTGCCGAATTCGTAACAAGCACTATAGGATTATTCATTCAAATGGCTAATGGATTTATTACCGCTTTGATGACGGATTTTGCTCACCGTTGCC (double strand) [vp1687 promoter, EMSA fragment]	binds	–	–
